This note sets out measurements from PMC12406258, “Uncovering the Unusual Inhibition Mechanism of a Trypanosome Alternative Oxidase Inhibitor Displaying Broad-Spectrum Activity against African Animal Trypanosomes” (Journal of Medicinal Chemistry, 2025).

Sequences of proteins named here, by UniProt entry; tags and fusion partners are left off. A change or cut given only in a name is not applied to a line headed by its entry. Residues count along the entry.
UniProt Q26710, 26-329 limits assumed, stated change not applied: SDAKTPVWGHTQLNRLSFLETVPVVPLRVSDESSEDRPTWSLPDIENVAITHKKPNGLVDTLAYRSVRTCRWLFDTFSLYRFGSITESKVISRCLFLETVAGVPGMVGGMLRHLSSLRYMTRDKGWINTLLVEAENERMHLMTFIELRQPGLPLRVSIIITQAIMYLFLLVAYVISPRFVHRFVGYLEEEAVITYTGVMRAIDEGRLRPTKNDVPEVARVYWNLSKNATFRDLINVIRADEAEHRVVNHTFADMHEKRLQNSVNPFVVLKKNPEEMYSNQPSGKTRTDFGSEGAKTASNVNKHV

The match of structure and compound is tentative.

The assay deals with recombinant TAO (ΔMTS rTAO) (Trypanosoma brucei brucei, UniProt Q26710). As to the kind of experiment: Inhibition of ubiquinol oxidase activity of purified recombinant TAO. Format: biochemical, T. brucei.

As to `Cc1ccc(C(=O)CCCCCCCCCCCCCCC[P+](c2ccccc2)(c2ccccc2)c2ccccc2)c(O)c1`, the “Inhibition of TAO at the highest concentration tested” value (5 μM) is given as “did not inhibit”. Moreover, the IC50 (read-out: rTAO IC50 (supplementary csv, compounds 2, 3, 5, 7, 11), IC50 (µM)) was greater than 5 µM.
